Anti-infective test results gathered from many reports (values: NIAID ChemDB through PubChem).

All rows: tests in culture; organism: HIV-1; measure: fold resistance

Blank or dashed fields: not listed here. Conditions beyond the fields shown may differ between rows. Fold resistance has wild type as its base.

compound | cell line | read by | strain | changes | value
Cc1cn([C@H]2C=C[C@@H](COC(=O)NCCSC(=O)OC[C@@H]3C=C[C@H](n4cc(C)c(=O)[nH]c4=O)O3)O2)c(=O)[nH]c1=O | MT-4 | cytopathic effect / MTT | NNRTI-resistant (RT Y181C) | RT-Y181C | 0.16
Nc1ccn([C@H]2CC[C@@H](CO)O2)c(=O)n1 | MT-2 | - | HXB2D (RT D67N K70R T215Y) | RT-D67N K70R T215Y | 1.58
O=C(O)P(=O)(O)O | MT-2 | - | HXB2 | Remodeled TAMs (K70G V75T L228R K219R) | 6.4
CC(=O)c1ccc(C)cc1NC(C(N)=O)c1c(Cl)cccc1Cl | CEM + CEM-SS | XTT | Calanolide A-resistant (RT T139I) | RT-T139I | 2.33
COc1c(O)c(I)c2c(c1OC)-c1c(c(I)c(O)c(OC)c1OC)C[C@H](C)[C@H](C)C2 | MT-2 | cytopathic effect / MTT | N119 nevirapine-resistant (RT Y181C) | RT-Y181C | >76.9
Fc1cccc(F)c1Cn1c(-c2c(F)cccc2F)nc2c(Br)cccc21 | MT-4 | cytopathic effect / MTT | - | RT-Y181C | 16.8
Nc1nc2c(ncn2[C@H]2CO[C@@H](CO)O2)c(=O)[nH]1 | MT-2 | - | - | RT-M184V | 4.17
Nc1ccn([C@@H]2CS[C@H](CO)O2)c(=O)n1 | PBMC | RT activity | 52534-2 NRTI resistant recombinant | RT-M41L T69ins L74V M184V L210W T215Y | >300
Cc1ccc(NC(=O)CSc2nnc(C)n2-c2c(C)ccc3ccccc23)c(Cl)c1 | HeLa + HeLa-JC53 | luciferase | NL4-3 | RT-K103N Y181C | 60
Cc1cn([C@@H]2O[C@H](CO[Si](C)(C)C(C)(C)C)C3(OS(=O)(=O)C=C3N)[C@H]2O[Si](C)(C)C(C)(C)C)c(=O)n(C)c1=O | CEM | p24 | IIIB | RT-Y181C | 83.3
CCc1c(C)[nH]c(=O)c(N(C)C)c1C(=O)c1cccc(Br)c1 | MT-4 | cytopathic effect / MTT | - | RT-K101E | 7
O=c1[nH]cnc2c1ncn2[C@H]1CC[C@@H](CO)O1 | MT-4 | RT activity | HXB2-D294 (RT-P294S) | RT-P294S | 0.885
Cc1cn([C@H]2C[C@H](N=[N+]=[N-])[C@@H](CO)O2)c(=O)[nH]c1=O | CEM + CEM-SS | cytopathic effect / XTT | NL4-3 | RT-V179D | 3
COC(=O)c1ccc(NC(=O)CSc2nnc(C)n2-c2ccc(C)cc2)c(Cl)c1 | HeLa + HeLa-JC53 | luciferase | NL4-3 | RT-K103N Y181C | 300
Cc1cn([C@H]2C=C[C@@H](CO)O2)c(=O)[nH]c1=O | PBMC | RT activity | 4755-5 NRTI resistant recombinant | RT-M41L E44D D67N T69D Y118I M184V L210W T215Y | 3.9
C/C=C/CSc1cc(NC(=S)c2ccsc2C)ccc1Cl | CEM + CEM-SS | cytopathic effect / XTT | Dihydrocostatolide-resistant (RT-L100I) | RT-L100I | 20
COc1ccc(-n2c(C)nnc2SCC(=O)Nc2ccccc2Br)c2ccccc12 | HeLa + HeLa-JC53 | luciferase | NL4-3 | RT-Y188L | 657
Nc1nc2c(ncn2[C@H]2CO[C@@H](CO)O2)c(=O)[nH]1 | MT-2 | - | HXB2D (RT D67N K70R T215Y) | RT-D67N K70R T215Y | 1.42
c1ccc2c(c1)sc1nccn12 | CEM + CEM-SS | cytopathic effect / XTT | IIIB(DPS-R(III)) | RT-Y181C | >200
O=c1[nH]cnc2c1ncn2[C@H]1CC[C@@H](CO)O1 | MT-2 | p24 | Q151M(RT-Q151M) | RT-Q151M | 1.8
CCc1c(C)[nH]c(=O)c(N(C)C)c1C(=O)c1cccc(/C=C/C#N)c1 | MT-4 | cytopathic effect / MTT | - | RT-Y188L | 158
Cc1cn([C@H]2C[C@H](N=[N+]=[N-])[C@@H](CO)O2)c(=O)[nH]c1=O | PBMC | RT activity | 1617-1 NRTI resistant recombinant | RT-T69K K70G V75I F77L F116Y Q151M M184V | 261
Cc1cn([C@H]2C[C@H](N=[N+]=[N-])[C@@H](CO)O2)c(=O)[nH]c1=O | PBMC | - | BCF08 | RT-A98G Y181C | 1
Cc1occc1C(=S)Nc1ccc(Cl)c(/C=N/OC(C)(C)C)c1 | CEM | p24 | IIIB | RT-M184I | 0.18
O=S1(c2ccccc2)=NC(=S)Nc2ccccc21 | CEM + CEM-SS | cytopathic effect / XTT | IIIB(CALO-R(II)) | RT-V90I T139I P225S | 1.9
O=c1[nH]cnc2c1ncn2[C@H]1CC[C@@H](CO)O1 | CEM | syncytia | IIIB TIBO R82913 STR-B02 (RT L100I E138K) | RT-L100I E138K | 1.3
Nc1ncnc2c1ncn2CCOCP(=O)(O)O | MT-2 | p24 | L74V(RT-L74V) | RT-L74V | 1.3
O=C(Nc1ccccc1)C1=COCCS1 | CEM + CEM-SS | cytopathic effect / XTT | IIIB HEPT-resistant (RT P236L) | RT-P236L | 2.8
Cc1ccc(NC(=O)CSc2nnc(C)n2-c2ccc(Cl)c3ccccc23)c(Cl)c1 | HeLa + HeLa-JC53 | luciferase | NL4-3 | RT-Y188L | 320
Cc1cc(SC2=C(O)C[C@@](CCc3ccsc3)(C(C)C)OC2=O)c(C(C)(C)C)cc1CO | CEM | cytopathic effect | - | PR-L10I V31I I15V K20I L24I M36I S37N I54V R57K L63P A71V V82A | <1
Cc1ccnc2c1NC(=O)c1cccnc1N2C1CC1 | HT4 + HT4 LacZ-1 | plaque count | HXB2 | RT-M41L Y181C T215Y | 167
Nc1ncnc2c1ncn2CCOCP(=O)(O)O | CEM | syncytia | IIIB TIBO R82913 STR-B22 (RT L100I Y188H) | RT-L100I Y188H | 1.43
Cc1cc(C#N)cc(C)c1Oc1nc(Nc2ccc(C#N)cc2)ncc1SCC(=O)N1CCSCC1 | MT-4 | MTT | - | RES056 | 102.1
CCc1c(Sc2ccccn2)n(COCc2ccccc2)c(=O)[nH]c1=O | CEM + CEM-SS | cytopathic effect / XTT | IIIB | RT-Y181C | 53
Cc1cn([C@H]2C[C@H](N=[N+]=[N-])[C@@H](CO)O2)c(=O)[nH]c1=O | MT-2 | - | HXB2D (RT D67N K70R T215Y) | RT-D67N K70R T215Y | 24.4
CCOCn1c(Cc2cc(C)cc(C)c2)c(CC)c(=O)[nH]c1=O | CEM | syncytia | IIIB TIBO R82913 STR-1 (RT L100I Y181C) | RT-L100I Y181C | 800
O=c1[nH]cnc2c1ncn2[C@H]1CC[C@@H](CO)O1 | MT-4 | p24 | XM-T69SSS | RT-T69SSS L210W T215Y | 1.3
Cc1cn([C@H]2C=C[C@@H](COC(=O)NCCSC(=O)OC[C@@H]3CC[C@H](n4cnc5c(=O)[nH]cnc54)O3)O2)c(=O)[nH]c1=O | MT-4 | cytopathic effect / MTT | NNRTI-resistant (RT K103N Y181C) | RT-K103N Y181C | >0.465
Cc1cn([C@H]2C=C[C@@H](CO)O2)c(=O)[nH]c1=O | HeLa | luciferase | Recombinant | RT-M41L A62V S68N G112S V118I M184V | 0.4
Cc1cn([C@H]2C[C@H](N=[N+]=[N-])[C@@H](CO)O2)c(=O)[nH]c1=O | MT-4 | p24 | XM-M184V | RT-M184V | 0.5
CC(C)Nc1cccnc1N1CCN(C(=O)c2cc3cc(NS(C)(=O)=O)ccc3[nH]2)CC1 | MT-4 | antigen | HXBE30(RT-P236L) | RT-P236L | 16.7
CC(=O)Nc1cccc2c1nc(-c1c(F)cccc1F)n2Cc1c(F)cccc1F | MT-4 | cytopathic effect / MTT | - | RT-K101E | >12.5
Cc1ccc(-n2c(C)nnc2SCC(=O)Nc2cccc(C)c2C)cc1 | HeLa + HeLa-JC53 | luciferase | NL4-3 | RT-K103N Y181C | >167
Nc1ccn([C@H]2CC[C@@H](CO)O2)c(=O)n1 | CD4+HELA + HeLa | plaque count | HXB2 | RT-M184V | 15.7
CCc1c(Sc2ccccn2)n(COCc2ccccc2)c(=O)[nH]c1=O | CEM + CEM-SS | cytopathic effect / XTT | IIIB(THZ-R(I)) | RT-V108I | 47
CCc1c(C(=O)c2cc(C)cc(C)c2)n(CC2CC=CC2)c(=O)[nH]c1=O | CEM + CEM-SS | cytopathic effect / XTT | NL4-3 | RT-Y181C | 4.5
Cc1cn([C@H]2C[C@H](N=[N+]=[N-])[C@@H](CO)O2)c(=O)[nH]c1=O | MT-4 | cytopathic effect / MTT | 1506-RS (RT-Y188L) | RT-Y188L | 1.4
Cc1cn([C@H]2C=C[C@@H](CO)O2)c(=O)[nH]c1=O | CD4+HELA + HeLa | plaque count | HXB2 | RT-V75T | 7.6
Cc1cn([C@H]2C[C@H](N=[N+]=[N-])[C@@H](CO)O2)c(=O)[nH]c1=O | CEM + CEM-SS | cytopathic effect / XTT | IIIB(THZ-R(I)) | RT-V108I | 2.5
CCc1c(C)[nH]c(=O)c(N(C)C)c1C(=O)c1cc(Cl)cc(Cl)c1 | MT-4 | cytopathic effect / MTT | - | RT-K103N Y181C | 79
COc1ccc2c(c1)N(C(=O)OC(C)C)[C@@H](CSC)C(=S)N2 | CEM | p24 | IIIB | RT-Y181C | 2
Cc1c(O)cccc1C(=O)N[C@@H](CSc1ccccc1)[C@H](O)CN1C[C@H]2CCCC[C@H]2C[C@H]1C(=O)NC(C)(C)C | MT-2 | - | NL4-3 | INTG-G140S | 2
Nc1ccn([C@H]2CC[C@@H](CO)O2)c(=O)n1 | MT-2 | p24 | RT P119S V179D L214F | RT-P119S V179D L214F | 2.1
CCc1c(C)[nH]c(=O)c(N(C)C)c1Cc1cc(Cl)cc(Cl)c1 | MT-4 | cytopathic effect / MTT | - | RT-K103N | 3.1
Nc1cccc2c1nc(-c1c(F)cccc1F)n2Cc1c(F)cccc1F | MT-4 | cytopathic effect / MTT | - | RT-L100I | 0.6
Cc1cn([C@H]2C[C@H](F)[C@@H](CO)O2)c(=O)[nH]c1=O | PBMC | antigen | K AZT-resistant (RT V75I F77L F116Y Q151M) | RT-V75I F77L F116Y Q151M | 0.6
Cc1cn([C@H]2C[C@H](N=[N+]=[N-])[C@@H](CO)O2)c(=O)[nH]c1=O | MT-2 | - | NL4-3 | INTG-G140S | 1.5
Nc1ccn([C@H]2CC[C@@H](CO)O2)c(=O)n1 | CEM | syncytia | IIIB TIBO R82913 STR-2 (RT K103N) | RT-K103N | 0.4
CCc1c(C)[nH]c(=O)c(N(C)C)c1C(=O)c1cccc(/C(C)=C(\C)C#N)c1 | MT-4 | cytopathic effect / MTT | - | RT-Y181C | 21
CC(C)=CCN1Cc2cc(Cl)cc3[nH]c(=S)n(c23)C[C@@H]1C | CEM | p24 | IIIB | RT-K103N | ≥250
CCc1ccc(-n2c(C)nnc2SCC(=O)Nc2ccccc2Br)c2ccccc12 | HeLa + HeLa-JC53 | luciferase | NL4-3 | RT-Y188L | 116
N#Cc1cc2[nH]c3ccccc3c2n(-c2ccc([N+](=O)[O-])cc2)c1=O | HeLa | luciferase | NNRTI-resistant | RT-K103N V108I | 1.2
Cc1cn([C@H]2C=C[C@@H](CO)O2)c(=O)[nH]c1=O | MT-4 | cytopathic effect / MTT | NNRTI-resistant (RT K103N Y181C) | RT-K103N Y181C | 1.06
Nc1ncnc2c1ncn2[C@@H]1O[C@H](CO)C[C@@H]1F | MT-2 | p24 | Q151M(RT-Q151M) | RT-Q151M | 0.9
Cc1ccnc2c1NC(=O)c1cccnc1N2C1CC1 | CEM + CEM-SS | cytopathic effect / XTT | TIBO R82150-resistant (RT A98G V108I) | RT-A98G V108I | 60
Cn1c2ccccc2c2c1cc(C#N)c(=O)n2-c1ccc([N+](=O)[O-])cc1 | HeLa | luciferase | NNRTI-resistant | RT-Y181C | 1.4
Cc1cn([C@@H]2O[C@H](CO[Si](C)(C)C(C)(C)C)[C@@]3(OS(=O)(=O)C=C3N)[C@H]2O[Si](C)(C)C(C)(C)C)c(=O)[nH]c1=O | CEM | syncytia | IIIB TIBO R82913 STR-B22 (RT L100I Y188H) | RT-L100I Y188H | 133
CCc1c(C)[nH]c(=O)c(N(C)C)c1C(=O)c1cccc(/C=C\C#N)c1 | MT-4 | cytopathic effect / MTT | - | RT-Y181C | 3.25
O=c1[nH]cnc2c1ncn2[C@H]1CC[C@@H](CO)O1 | PBMC | - | VAU (RT-A98G) | RT-A98G | 0.588
CNc1cccc2c1nc(-c1c(F)cccc1F)n2Cc1c(F)cccc1F | MT-4 | cytopathic effect / MTT | - | RT-K103N | 20.4
CCOCn1c(Cc2ccccc2)c(C(C)C)c(=O)[nH]c1=O | MT-4 | cytopathic effect / MTT | - | RT-V179E | 4
O=c1[nH]cnc2c1ncn2[C@H]1CC[C@@H](CO)O1 | PBMC | RT activity | 52534-2 NRTI resistant recombinant | RT-M41L T69ins L74V M184V L210W T215Y | 3.3
CN(C)c1cccc2c1nc(-c1c(F)cccc1F)n2Cc1c(F)cccc1F | MT-4 | cytopathic effect / MTT | - | RT-M184I | 0.97
Cc1ccnc2c1NC(=O)c1cccnc1N2C1CC1 | PBMC | - | BCF11 | RT-A98G K103R | 5.9
CCc1c(C)[nH]c(=O)c(N(C)C)c1Cc1cccc(/C=C/C#N)c1 | MT-4 | cytopathic effect / MTT | - | RT-E138K | 7.5

Again, the opening 7 rows:

| compound | cell line | read by | strain | changes | value |
|---|---|---|---|---|---|
| Cc1cn([C@H]2C=C[C@@H](COC(=O)NCCSC(=O)OC[C@@H]3C=C[C@H](n4cc(C)c(=O)[nH]c4=O)O3)O2)c(=O)[nH]c1=O | MT-4 | cytopathic effect / MTT | NNRTI-resistant (RT Y181C) | RT-Y181C | 0.16 |
| Nc1ccn([C@H]2CC[C@@H](CO)O2)c(=O)n1 | MT-2 | - | HXB2D (RT D67N K70R T215Y) | RT-D67N K70R T215Y | 1.58 |
| O=C(O)P(=O)(O)O | MT-2 | - | HXB2 | Remodeled TAMs (K70G V75T L228R K219R) | 6.4 |
| CC(=O)c1ccc(C)cc1NC(C(N)=O)c1c(Cl)cccc1Cl | CEM + CEM-SS | XTT | Calanolide A-resistant (RT T139I) | RT-T139I | 2.33 |
| COc1c(O)c(I)c2c(c1OC)-c1c(c(I)c(O)c(OC)c1OC)C[C@H](C)[C@H](C)C2 | MT-2 | cytopathic effect / MTT | N119 nevirapine-resistant (RT Y181C) | RT-Y181C | >76.9 |
| Fc1cccc(F)c1Cn1c(-c2c(F)cccc2F)nc2c(Br)cccc21 | MT-4 | cytopathic effect / MTT | - | RT-Y181C | 16.8 |
| Nc1nc2c(ncn2[C@H]2CO[C@@H](CO)O2)c(=O)[nH]1 | MT-2 | - | - | RT-M184V | 4.17 |